Measured values reported in patent US7575758B2, “Acaricidal compositions and methods of use thereof” (dated 2009).

System: A. americanum
Assay: Acaricidal activity by direct injection of a single dose of toxin

## LLACLFGNGRCSSNRDCCELTPVCKRGSCVSSGPGLVGGILGGIL
Single dose 6 nmol/g (about 25 μg/g) injected, unengorged male and female ticks, at 48 hours
  mortality: 100%
Single dose 6 nmol/g injected
  onset of symptoms: within a few minutes
  paralysis: irreversibly paralyzed
